The text below walks through data of the supplement of paper PMC13380429.

For part of these data: This list holds what a sample rich in highest values left over. For part of these data: Most of the hits are listed elsewhere, so they are rarer here than in the full data.

Assay [1] relates to Vero E6 infected with SARS-CoV-2. Description: inhibition of SARS-CoV-2 cytopathic effect; higher = more antiviral protection, active = above 15. Conditions: 48 h. A general note: Cytopathic effects are the visible damage that an infection or toxin causes in cultured cells.
The test system is the same in assay [2]. Briefly: morphology score (similarity to uninfected cells); higher = more like uninfected cells. The following applies: 10 µM; 24 h.
For assay [3] the test system is unchanged. Briefly: SARS-CoV-2 infection rate relative to infected DMSO; higher = more infection, active = 60 or less. Conditions: 10 µM; 24 h.

In the case of `COc1cc(Br)c(C[N+]2(CCOCCC3CCC4CC3C4(C)C)CCOCC2)cc1OC` (configuration not stated) [pinaverium], the “inhibition of SARS-CoV-2 cytopathic effect” value was inactive: 1.66% in assay [1] (1 nM); inactive: 0.27% in assay [1] (8.33 nM); inactive: 1.52% in assay [1] (100 nM); inactive: -1.65% in assay [1] (833.33 nM); inactive: 1.64% in assay [1] (10000 nM).

As for `N/C(=N/CCc1ccc(I)cc1)SCCCc1cnc[nH]1` [iodophenpropit], in assay [2], the morphology score was found to be 0.216. Moreover, the “inhibition of SARS-CoV-2 cytopathic effect” value was inactive: 3.1% in assay [1] (1 nM); inactive: 0.48% in assay [1] (8.33 nM); inactive: 1.12% in assay [1] (100 nM); inactive: 5.3% in assay [1] (833.33 nM); inactive: -0.14% in assay [1] (10000 nM). Moreover, the SARS-CoV-2 infection rate in assay [3] is inactive: 80.5%.
